Measured values published in paper PMC6479402, “Anti-Herpetic, Anti-Dengue and Antineoplastic Activities of Simple and Heterocycle-Fused Derivatives of Terpenyl-1,4-Naphthoquinone and 1,4-Anthraquinone” (Molecules, 2019).

Key:
[1] = tested on: Jurkat; test: MTT cytotoxicity assay; format: cell-based, human; settings: Jurkat vs Vero; 48 h
Procedure: (§1) Then, each diluted molecule was added to the cells and incubated for further 48 h at 37 °C, 5% CO2. […] The DMSO was then added to dissolve the formed formazan crystals and absorbance was determined spectrophotometrically at 570 nm. […] IC50 values were expressed as the mean ± standard deviation (M ± SD) of two independent experiments done in quadruplicate.

[2] = tested on: HeLa; test: MTT cytotoxicity assay; format: cell-based, human; settings: HeLa vs Vero; 48 h
Procedure: as §1

CC1(C)CCCc2cc3c(cc21)C(=O)C(Cl)=C(Cl)C3=O [AQ 12] was tested, and the “SI (IC50 Vero/IC50 Jurkat)” value [1] was 5 and the “SI (IC50 Vero/IC50 HeLa)” value [2] was 4.
For Cc1ccc2[nH]c3c(c2c1)C(=O)c1ccc(CCCC(C)C)cc1C3=O [HetQ 19], the “SI (IC50 Vero/IC50 Jurkat)” value [1] was less than 3 and the “SI (IC50 Vero/IC50 HeLa)” value [2] was 3.
In the case of Cc1cc(C)c2c3c(oc2c1)C(=O)c1cc(CCCC(C)C)ccc1C3=O [HetQ 20], the “SI (IC50 Vero/IC50 Jurkat)” value [1] is reported as 4 and the “SI (IC50 Vero/IC50 HeLa)” value [2] is reported as less than 2.
In the case of CCn1c(C)c(C(=O)OC)c2c1C(=O)c1cc3c(cc1C2=O)C(C)(C)CCC3 [HetQ 22], the “SI (IC50 Vero/IC50 Jurkat)” value [1] is reported as 3 and the “SI (IC50 Vero/IC50 HeLa)” value [2] is reported as 3.
CC(C)CCCc1ccc2c(c1)C(=O)C(Br)=C(Br)C2=O [NQ 5] was tested, and the “SI (IC50 Vero/IC50 Jurkat)” value [1] was 1 and the “SI (IC50 Vero/IC50 HeLa)” value [2] was 1.
